Assay: Solid-state stability test of crystalline form D (XRPD and HPLC after storage)

Question: For `CCN1C[C@]2(COC)CC[C@@H](OC)[C@]34C5C[C@]6(O)[C@@H](OC)C[C@@](OC(C)=O)(C5[C@H]6OC(=O)c5ccc(OC)cc5)[C@H](C13)[C@H](OC)[C@H]24` (some centres unmarked), which “HPLC purity Area %” value (25° C./60% RH, open, 1 month) is on record?
Answer: 99.29 Area %

Question: And the “HPLC purity Area %” value (25° C./60% RH, open, 1 week)?
Answer: 99.81 Area %

Question: What about the “HPLC purity Area %” value (40° C./75% RH, open, 1 month) of the same compound?
Answer: 99.74 Area %

Question: And the “HPLC purity Area %” value (40° C./75% RH, open, 1 week)?
Answer: 99.34 Area %

Question: What about the “HPLC purity Area %” value (80° C., 24 hours, sealed) of the same compound?
Answer: 99.56 Area %

Source: US20220185781A1, “BULLEYACONITINE D CRYSTAL AND PREPARATION METHOD THEREFOR AND APPLICATION THEREOF” (priority 2019, published 2022)
